Taken from: PubChem BioAssay AID1259414 (Drosophila RNAi Screening Center, 2018)

- Aim: 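Fly genes that alter Wolbachia amount inside host cells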 (primary screen)
- System: Drosophila JW18 cells infected with Wolbachia
- Reagents: long dsRNA against Drosophila genes, 0.25 µg dsRNA per well of a 384-well plate
- Time to read-out: 5 days
- Conditions: cells persistently infected with Wolbachia before knock-down; no added drug
- Read-out: 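Imaged fluorescence in situ signal for Wolbachia 23S rRNA per DAPI-counted host cell, given as a robust z-score within each plate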
- Direction: Wolbachia per cell robust z: higher = more Wolbachia per host cell than the plate typical
- Rule for the call: 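Active if absolute robust z reaches 1.5 in two or more of three replicates, leaving out multi- or no-target dsRNAs, genes unexpressed in JW18 and A1 wells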
In all, the deposit lists about 24,000 reagents; below is a random part of those that have a named target and a result. Of all reagents, about 1,210 (5%) were called active. 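Inactive calls also include excluded dsRNAs with several or no targets, genes unexpressed in JW18, and well A1, regardless of score.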 A number with no mark means an inactive call. The numbers tell different reagents against one gene apart. A plus sign joins genes that one reagent is predicted to hit.

gene,reagent no.,"Wolbachia per cell robust z, rep 1","Wolbachia per cell robust z, rep 2","Wolbachia per cell robust z, rep 3"
Tie,1,0.913,0.747,1.81
Tie,2,1.18,0.604,-1.69
COX6AL,1,0.767,-0.0188,-0.177
CG8560,1,-0.619,-0.0191,-0.969
CG8560,2,-0.414,0.0278,0.6
CG40191,1,-1.74,-0.148,-0.303
CG7458 + CR34262,1,1.23,-0.449,-0.356
ppk3,1,1.62,0.409,0.574
ppk3,2,-1.17,-0.462,0.411
zye,1,-4.52,-0.843,0.254
CCT7,1,-0.699 (active),1.9,2.02
CG14721 + Blm,1,-3.91,0.427,-0.617

The list goes on, starting with the last 4 of the part before.
gene,reagent no.,"Wolbachia per cell robust z, rep 1","Wolbachia per cell robust z, rep 2","Wolbachia per cell robust z, rep 3"
ppk3,2,-1.17,-0.462,0.411
zye,1,-4.52,-0.843,0.254
CCT7,1,-0.699 (active),1.9,2.02
CG14721 + Blm,1,-3.91,0.427,-0.617
Cyp6a23,1,-0.0253,-2.17,-0.862
Cyp6a23,2,-1.07,-1.68,-1.04
CG12814,1,0.0738,-0.345,-0.053
CG12814,2,0.455,0.183,-3.04
brwl,1,-1.23,-1,-1.48
brwl,2,0.692,0.538,0.303
CG33523,1,0.00501,-1.57,0.252
CG33523,2,0.458,0.267,-0.675
RPA1,1,0.742,1.3,-0.133
pHCl-2,1,-3.97,-2.74,-5.42
CG6652,1,-0.438,0.134,-1.53
CG6652,2,0.777,-0.732,-0.469
RhoGAPp190,1,1.05,-2.35,-0.213
RhoGAPp190,2,1.67,1.35,-0.301
CG42504 + CG31358 + CG42505,1,0.0454,-0.34,-0.193
CG12824,1,-0.429,0.643,-0.756
